Source: patent publication EP4821928A1, “BICYCLIC HETEROCYCLIC COMPOUND AND FUNGICIDE FOR AGRICULTURAL AND HORTICULTURAL USE CONTAINING SAME AS ACTIVE INGREDIENT” (dated 2026)

Tests used:
[1] = tested on: Gray mold fungus (Botrytis cinerea); assay: Gray mold anti-germ test (Test Example C); conditions: for Gray mold anti-germ test (rate of inhibition): 50 ppm/well, Czapek-dox broth, 25°C for 3 days, absorbance 600 nm; for rate of inhibition (Test Example C): Gray mold fungus (Botrytis cinerea) anti-germ test
Description: (§1) Gray mold fungus (Botrytis cinerea) Conidia were suspended in Czapek-dox broth and a suspension of 1 × 10^5 spores were prepared. The prepared spore suspension was seeded at 100 µl/well to a 96-well multiplate. In the test, each compound was dissolved in a dimethyl sulfoxide-methanol mixed solution (volume ratio: 9/1) and dispensed at 50 ppm/well. The absorbance of each well was measured at a wavelength of 600 nm using a photometer. The multiplate was incubated at 25°C for 3 days, followed by absorbance measurement again. The difference in absorbance between the treatment day and 3 days later was calculated, and the rate of inhibition was calculated from the ratio between the treatment group and the non-treatment group.

[2] = tested on: Speckled leaf blotch fungus (Septoria tritici); assay: Speckled leaf blotch anti-germ test (Test Example F); conditions: 50 ppm/well; Czapek-dox broth; 25°C for 3 days; absorbance 600 nm
Description: as §1, with “Speckled leaf blotch” for “Gray mold”, “(Septoria tritici)” for “(Botrytis cinerea)”

[3] = tested on: Fusarium blight fungus (Fusarium graminearum); assay: Fusarium blight anti-germ test (Test Example D); conditions: for Fusarium blight anti-germ test (rate of inhibition): 50 ppm/well, Czapek-dox broth, 25°C for 3 days, absorbance 600 nm; for rate of inhibition (Test Example D): Fusarium blight fungus (Fusarium graminearum) anti-germ test
Description: as §1, with “Fusarium blight” for “Gray mold”, “(Fusarium graminearum)” for “(Botrytis cinerea)”

Botrytis cinerea = assay: Tomato gray mold pot test (Test Example B); conditions: 250 ppm sprayed, 2.5 ml/pot; tomato variety Oogata Fukuju; degree of disease development 2 to 3 days after inoculation
Description: Seeds of test plants (tomato variety: Oogata Fukuju) were planted and then cultivated until three first leaves appeared. In the test, each compound was dissolved in a dimethyl sulfoxide-methanol mixed solution (volume ratio: 9/1) and diluted into a concentration of 250 ppm with ion exchange water to obtain a chemical. The obtained chemical was sprayed to the test plants (2.5 ml/pot). After drying of the chemical, the plants were inoculated by spraying of 3 to 6 × 10^5 organisms/ml of a conidium suspension of Botrytis cinerea. The plants thus inoculated were left at room temperature of 23 to 25°C in a moist chamber for approximately 48 hours to promote the onset of the disease. The degree of disease development was investigated 2 to 3 days after inoculation, and effects of the chemical were evaluated.
(§2) The degrees of disease development in these Test Examples were evaluated by 0.05 when the degree of disease development in a plant having no onset of the disease was defined as 0 and the degree of disease development in a plant in a group without chemical treatment was defined as 3. From the degree of disease development, a control value was calculated according to the following expression.
(§3) Control value = 100{1−(n/3)} [formula] N = Degree of disease development in each chemical treatment group.

[4] = tested on: Anthracnose fungus (Glomerella cingulata); assay: Anthracnose anti-germ test (Test Example E); conditions: 50 ppm/well; Czapek-dox broth; 25°C for 3 days; absorbance 600 nm
Description: as §1, with “The” for “Gray mold fungus (Botrytis cinerea) Conidia were suspended in Czapek-dox broth and a suspension of 1 × 10^5 spores were prepared. The”

Magnaporthe grisea = assay: Rice blast disease pot test (Test Example A); conditions: 250 ppm sprayed, 2.5 ml/pot; rice variety Sachikaze; degree of disease development 6 to 8 days after inoculation
Description: Seeds of test plants (rice variety: Sachikaze) were planted and then cultivated until the second leaves appeared. In the test, each synthesized compound was dissolved in a dimethyl sulfoxide-methanol mixed solution (volume ratio: 9/1) and diluted into a concentration of 250 ppm with ion exchange water to obtain a chemical. The obtained chemical was sprayed to the test plants (2.5 ml/pot). After drying of the chemical, the plants were inoculated by spraying of 3 to 5 × 10^4 organisms/ml of a conidium suspension of Magnaporthe grisea. The plants thus inoculated were left at room temperature of 23 to 25°C in a moist chamber for approximately 24 hours to promote the onset of the disease. The degree of disease development was investigated 6 to 8 days after inoculation, and effects of the chemical were evaluated.
as §2, §3

| Compound | Gray mold anti-germ test (rate of inhibition) [1] | Speckled leaf blotch anti-germ test (rate of inhibition) [2] | Fusarium blight anti-germ test (rate of inhibition) [3] | Tomato gray mold pot test (control value) (Botrytis cinerea) | Anthracnose anti-germ test (rate of inhibition) [4] | Rice blast disease pot test (control value) (Magnaporthe grisea) | rate of inhibition (Test Example C) [1] | rate of inhibition (Test Example D) [3] |
| --- | --- | --- | --- | --- | --- | --- | --- | --- |
| Cc1ccc2c(c1)OC(C)(C1CCC1)N=C2n1cnc2c(C)c(C)ccc21 (stereo not shown) | H (H represents a control value or rate of inhibition of larger than 50%) | H (H represents a control value or rate of inhibition of larger than 50%) | H (H represents a control value or rate of inhibition of larger than 50%) | H (H represents a control value or rate of inhibition of larger than 50%) | H (H represents a control value or rate of inhibition of larger than 50%) | H (H represents a control value or rate of inhibition of larger than 50%) | – | – |
| Cc1cccc2c1OC(C)(C)N=C2n1cnc2c(Br)cccc21 | H (H represents a control value or rate of inhibition of larger than 50%) | H (H represents a control value or rate of inhibition of larger than 50%) | L (L represents a control value or rate of inhibition of 50% or less) | H (H represents a control value or rate of inhibition of larger than 50%) | H (H represents a control value or rate of inhibition of larger than 50%) | H (H represents a control value or rate of inhibition of larger than 50%) | – | – |
| Cc1c(Br)cnc2c1ncn2C1=NC(C)(c2ccccc2)Oc2c(F)cccc21 (stereo not shown) | – | – | – | – | – | – | H (H represents a control value or rate of inhibition of larger than 50%) | H (H represents a control value or rate of inhibition of larger than 50%) |
| Cc1c(Cl)cnc2c1ncn2C1=NC(C)(c2ccccc2F)Oc2c(Cl)cccc21 (stereo not shown) | – | – | – | – | – | – | H (H represents a control value or rate of inhibition of larger than 50%) | H (H represents a control value or rate of inhibition of larger than 50%) |
| Cc1cccc2c1ncn2C1=NC(C)(C)[S+]([O-])c2c(F)cccc21 (stereo not shown) | L (L represents a control value or rate of inhibition of 50% or less) | L (L represents a control value or rate of inhibition of 50% or less) | L (L represents a control value or rate of inhibition of 50% or less) | H (H represents a control value or rate of inhibition of larger than 50%) | – | H (H represents a control value or rate of inhibition of larger than 50%) | – | – |
| Cc1ccc2c(c1)OC(C)(C)N=C2n1cnc2c(C3CC3)cccc21 | H (H represents a control value or rate of inhibition of larger than 50%) | L (L represents a control value or rate of inhibition of 50% or less) | L (L represents a control value or rate of inhibition of 50% or less) | H (H represents a control value or rate of inhibition of larger than 50%) | – | L (L represents a control value or rate of inhibition of 50% or less) | – | – |
| Cc1cnc2c(ncn2C2=NC(C)(c3ccccc3)Oc3c(F)cccc32)c1C (stereo not shown) | – | – | – | – | – | – | H (H represents a control value or rate of inhibition of larger than 50%) | H (H represents a control value or rate of inhibition of larger than 50%) |
| Cc1ccc2c(c1)OC(C)(C)N=C2n1cnc2c(C)c(Cl)ccc21 | – | – | – | – | H (H represents a control value or rate of inhibition of larger than 50%) | – | – | – |
| Cc1ccnn2c(C3=NC(C)(c4cccc(F)c4)Oc4c(Cl)cccc43)cnc12 (stereo not shown) | – | – | – | – | – | – | H (H represents a control value or rate of inhibition of larger than 50%) | H (H represents a control value or rate of inhibition of larger than 50%) |
| Cc1cccc2c1OC(C)(C)N=C2c1cnn2c(C)c(C)cnc12 | H (H represents a control value or rate of inhibition of larger than 50%) | H (H represents a control value or rate of inhibition of larger than 50%) | H (H represents a control value or rate of inhibition of larger than 50%) | – | – | – | – | – |
| Cc1c(Cl)cnc2c1ncn2C1=NC(C)(c2ccccc2)Oc2c(F)cccc21 (stereo not shown) | – | – | – | – | – | – | H (H represents a control value or rate of inhibition of larger than 50%) | H (H represents a control value or rate of inhibition of larger than 50%) |
| Cc1cccc2c1OC(C)(C)N=C2n1cnc2c(C3CC3)cccc21 | L (L represents a control value or rate of inhibition of 50% or less) | H (H represents a control value or rate of inhibition of larger than 50%) | L (L represents a control value or rate of inhibition of 50% or less) | H (H represents a control value or rate of inhibition of larger than 50%) | – | H (H represents a control value or rate of inhibition of larger than 50%) | – | – |
| CCN(C)c1ccc2c(c1)OC(C)(C)N=C2n1cnc2c(C)c(C)ccc21 | H (H represents a control value or rate of inhibition of larger than 50%) | H (H represents a control value or rate of inhibition of larger than 50%) | H (H represents a control value or rate of inhibition of larger than 50%) | H (H represents a control value or rate of inhibition of larger than 50%) | – | H (H represents a control value or rate of inhibition of larger than 50%) | – | – |
| Cc1cnc2c(ncn2C2=NC(C)(c3ccccc3F)Oc3c(Cl)cccc32)c1C (stereo not shown) | – | – | – | – | – | – | H (H represents a control value or rate of inhibition of larger than 50%) | H (H represents a control value or rate of inhibition of larger than 50%) |
| Cc1c(Br)cnc2c1ncn2C1=NC(C)(c2ccccc2F)Oc2c(Cl)cccc21 (stereo not shown) | – | – | – | – | – | – | H (H represents a control value or rate of inhibition of larger than 50%) | H (H represents a control value or rate of inhibition of larger than 50%) |
| Cc1ccc2c(c1)OC(C)(C(C)(C)C)N=C2n1cnc2c(C)c(C)ccc21 (stereo not shown) | H (H represents a control value or rate of inhibition of larger than 50%) | L (L represents a control value or rate of inhibition of 50% or less) | L (L represents a control value or rate of inhibition of 50% or less) | H (H represents a control value or rate of inhibition of larger than 50%) | – | L (L represents a control value or rate of inhibition of 50% or less) | – | – |
